Assay: Color contrast of chromogen on blood plate

## Oc1c[nH]c2cc(Cl)ccc12 [6-chloro-3-indoxyl]
  Contrast on Blood Plate: Poor*
Colony color of chromogen
  Colony: grey purple

Source: patent US20020086278A1, “CHROMOGENIC MEDIA CONTAINING BLOOD OR HEMIN” (priority 1999, published 2002)
